Anti-infective test results gathered from many reports (values: NIAID ChemDB through PubChem).

Common to all: growth or infection tests; agent: HIV-1; cell line: MT-4; method: p24; endpoint: EC95

ECn: concentration that inhibits the pathogen or its effect by n%. Rows are shuffled and stem from different studies. An empty or dashed field is not shown. Two numbers with a dash give a range or band.

{"SMILES": "O=C(NCc1ccc(F)cc1)c1nc2n(c(=O)c1O)CN1CCSC21", "result": "<50 µM"}
{"SMILES": "Cc1cc(C)c(-n2nnnc2SCC(=O)Nc2ccc(Br)cc2F)c(C)c1", "result": "<10 µM"}
{"SMILES": "CN1CCc2c(c(O)c3n2CCN(Cc2ccc(F)cc2)C3=O)C1=O", "result": "≤10 µM"}
{"SMILES": "CC(=O)N1CCn2c(nc(C(=O)NCc3ccc(F)cc3)c(O)c2=O)C1CO", "result": "<50 µM"}
{"SMILES": "CNC(=O)c1cc(F)ccc1CNC(=O)c1nc(N2CCCN(C)S2(=O)=O)c2cccnc2c1O", "result": "<5 µM"}
{"SMILES": "O=C(O)c1[nH]c(=O)c(O)c2c1CCN(Cc1ccc(F)cc1)C2=O", "result": "≤10 µM"}
{"SMILES": "O=C1NCC(CCC2(C(F)(F)F)OC(=O)Nc3ccc(Cl)cc32)O1", "strain": "IIIB", "result": "78 µM"}
{"SMILES": "CC1(C)c2nc(C(=O)NCc3ccc(F)cc3)c(O)c(=O)n2CCN1Cc1cocn1", "result": "<1 µM"}
{"SMILES": "CC(C)n1c(=O)c(O)c2n(c1=O)C(CCN1CCOCC1)CN(Cc1ccc(F)cc1)C2=O", "result": "<10 µM"}
{"SMILES": "C[C@H]1O[C@@H](CO)O[C@H]1n1cnc2c(=O)[nH]c(N)nc21", "result": ">10 µM"}
{"SMILES": "CC(=O)N(C)c1c2c(c(O)c(=O)n1C)C(=O)N(Cc1ccc(F)cc1)CC2", "result": "≤10 µM"}
{"SMILES": "N#Cc1cc(Cl)cc(Oc2cc(OCc3nc(-c4ccccc4)no3)ccc2Cl)c1", "result": "<20 µM"}
{"SMILES": "O=C(CCSc1nnnn1-c1cccc2ccccc12)Nc1ccccc1[N+](=O)[O-]", "result": "<10 µM"}
{"SMILES": "CC(C)n1c(=O)c(O)c2n(c1=O)C(CCn1ccnc1)CN(Cc1ccc(F)cc1)C2=O", "result": "<10 µM"}
{"SMILES": "C[C@@H]1O[C@@H](CO)O[C@@H]1n1cnc2c(=O)[nH]c(N)nc21", "result": ">10 µM"}
{"SMILES": "NS(=O)(=O)c1ccc(NC(=O)CNc2cccc(Oc3ccccc3)c2)c(Cl)c1", "result": "<20 µM"}
{"SMILES": "CC1(C)c2nc(C(=O)NCc3ccc(F)cc3)c(O)c(=O)n2CCN1Cc1nnco1", "result": "<1 µM"}
{"SMILES": "CNC(=O)c1cc(F)ccc1CNC(=O)c1nc(N2CCCCS2(=O)=O)c2cccnc2c1O", "result": "<5 µM"}
{"SMILES": "CN1CCn2c(nc(C(=O)NCc3ccc(F)cc3)c(O)c2=O)C(NCc2ccccc2)C1", "result": "<50 µM"}
{"SMILES": "N#Cc1cc(Cl)cc(Oc2cc(Cl)cc(OCC(=O)NCC3CCS(=O)(=O)C3)c2)c1", "result": "<20 µM"}
{"SMILES": "CC1(C)c2nc(C(=O)NCc3ccc(F)cc3)c(O)c(=O)n2CCN1Cc1cnco1", "result": "<1 µM"}
{"SMILES": "CN(C)C(=O)c1cc(F)ccc1CNC(=O)c1nc(N2CCCCS2(=O)=O)c2cccnc2c1O", "result": "<5 µM"}
{"SMILES": "C[C@@H]1O[C@H](CO)O[C@H]1n1cnc2c(N)ncnc21", "result": ">10 µM"}
{"SMILES": "Cc1ccc(-n2nnnc2SCC(=O)Nc2ccccc2Cl)cc1", "result": "<10 µM"}
{"SMILES": "CC(C)n1c(=O)c(O)c2n(c1=O)CCN(Cc1ccc3ccccc3n1)C2=O", "result": "<10 µM"}
{"SMILES": "CN(c1[nH]c(=O)c(O)c2c1CCN(Cc1ccc(F)cc1)C2=O)S(C)(=O)=O", "result": "≤10 µM"}
{"SMILES": "NC(=O)c1cc(F)ccc1CNC(=O)c1nc(N2CCCCS2(=O)=O)c2cccnc2c1O", "result": "<5 µM"}
{"SMILES": "CN(C)CC1c2nc(C(=O)NCc3ccc(F)cc3)c(O)c(=O)n2CCN1Cc1ccn(C)n1", "result": "1–10 µM"}
{"SMILES": "COC(=O)c1sccc1NC(=O)CSc1nnnn1-c1c(C)cc(C)cc1C", "result": "<10 µM"}
{"SMILES": "CCN(CC)C(=O)c1[nH]c(=O)c(O)c2c1CCN(Cc1ccc(F)cc1)C2=O", "result": "≤10 µM"}
{"SMILES": "Cc1cc(C)c(-n2nnnc2SCC(=O)Nc2ccc(F)cc2F)c(C)c1", "result": "<10 µM"}
{"SMILES": "CC(=O)N1CCOCC1Cn1c(=O)c(O)c2n(c1=O)CCN(Cc1ccc(F)cc1)C2=O", "result": "<10 µM"}
{"SMILES": "CC(C)[C@H](NC(=O)OCc1ccccn1)C(=O)N[C@@H](Cc1ccccc1)[C@@H](O)C[C@H](Cc1ccccc1)NC(=O)OCc1cccnc1", "strain": "NL4-3", "changes": "PR-L10R M46I", "result": "0.8 µM"}
{"SMILES": "CCN(CC)C(=O)c1c2c(c(O)c(=O)n1C)C(=O)N(Cc1ccc(F)c(Cl)c1)CC2", "result": "≤10 µM"}
{"SMILES": "CN(C)c1ccc(-n2nnnc2SCC(=O)Nc2ccccc2[N+](=O)[O-])c2ccccc12", "result": "<10 µM"}
{"SMILES": "N#Cc1cc(Cl)cc(Oc2cc(Cl)cc(OCC(=O)Nc3ccc4nc[nH]c4c3)c2)c1", "result": "<20 µM"}
{"SMILES": "CN1CCCn2c(nc(C(=O)NCc3ccc(F)cc3)c(O)c2=O)C1(C)C", "result": "<1 µM"}

The last 3 rows once more:

SMILES	strain	changes	result
CN(C)c1ccc(-n2nnnc2SCC(=O)Nc2ccccc2[N+](=O)[O-])c2ccccc12	-	-	<10 µM
N#Cc1cc(Cl)cc(Oc2cc(Cl)cc(OCC(=O)Nc3ccc4nc[nH]c4c3)c2)c1	-	-	<20 µM
CN1CCCn2c(nc(C(=O)NCc3ccc(F)cc3)c(O)c2=O)C1(C)C	-	-	<1 µM